± gives the uncertainty stated by the source.
Experiment: xn = mol fraction of the nth substance listed

CCCC[N+]1(C)CCCC1.O=S(=O)(F)[N-]S(=O)(=O)F + O gave an electrical conductivity (288.15 K, 100 kPa, x1 = 0.8777) of 0.569 ± 0.011 S/m, an electrical conductivity (288.15 K, 100 kPa, x1 = 0.9002) of 0.54 ± 0.011 S/m and an electrical conductivity (293.15 K, 100 kPa, x1 = 0.817) of 0.744 ± 0.015 S/m. It also gave a viscosity (293.15 K, 100 kPa, x1 = 0.9182) of 52.1 ± 1.1 mPa·s, an electrical conductivity (298.15 K, 100 kPa, x1 = 0.8556) of 0.795 ± 0.016 S/m and a viscosity (303.15 K, 100 kPa, x1 = 0.8545) of 32.1 ± 0.66 mPa·s. For the same compound, the electrical conductivity (303.15 K, 100 kPa, x1 = 0.9002) was 0.86 ± 0.017 S/m, the electrical conductivity (303.15 K, 100 kPa, x1 = 0.9283) was 0.816 ± 0.016 S/m and the electrical conductivity (308.15 K, 100 kPa, x1 = 0.9002) was 0.983 ± 0.02 S/m. It also gave a viscosity (308.15 K, 100 kPa, x1 = 0.9457) of 33.67 ± 0.7 mPa·s, an electrical conductivity (313.15 K, 100 kPa, x1 = 0.8556) of 1.18 ± 0.024 S/m and an electrical conductivity (313.15 K, 100 kPa, x1 = 0.9771) of 0.987 ± 0.02 S/m. The electrical conductivity (318.15 K, 100 kPa, x1 = 0.8777) was 1.3 ± 0.026 S/m, the electrical conductivity (318.15 K, 100 kPa, x1 = 0.9283) was 1.2 ± 0.024 S/m and the electrical conductivity (318.15 K, 100 kPa, x1 = 0.9771) was 1.11 ± 0.022 S/m. The viscosity (323.15 K, 100 kPa, x1 = 0.8018) was 16.4 ± 0.34 mPa·s, the electrical conductivity (323.15 K, 100 kPa, x1 = 0.817) was 1.56 ± 0.031 S/m and the electrical conductivity (323.15 K, 100 kPa, x1 = 0.8556) was 1.48 ± 0.03 S/m. It also gave an electrical conductivity (323.15 K, 100 kPa, x1 = 0.9002) of 1.39 ± 0.028 S/m, an electrical conductivity (323.15 K, 100 kPa, x1 = 0.9771) of 1.25 ± 0.025 S/m and an electrical conductivity (328.15 K, 100 kPa, x1 = 0.817) of 1.74 ± 0.035 S/m. For the same compound, the electrical conductivity (328.15 K, 100 kPa, x1 = 0.9002) was 1.55 ± 0.031 S/m, the electrical conductivity (328.15 K, 100 kPa, x1 = 0.9283) was 1.5 ± 0.03 S/m and the viscosity (328.15 K, 100 kPa, x1 = 0.9727) was 20.46 ± 0.43 mPa·s. For the same compound, the viscosity (333.15 K, 100 kPa, x1 = 0.8018) was 13.08 ± 0.27 mPa·s, the viscosity (333.15 K, 100 kPa, x1 = 0.8758) was 15 ± 0.31 mPa·s and the electrical conductivity (333.15 K, 100 kPa, x1 = 0.8777) was 1.8 ± 0.036 S/m. The viscosity (333.15 K, 100 kPa, x1 = 0.9457) was 17.24 ± 0.36 mPa·s.
With CCCC[N+]1(C)CCCC1.O=S(=O)(F)[N-]S(=O)(=O)F + CCCC[N+]1(C)CCCC1.O=C1O[B-]2(OC1=O)OC(=O)C(=O)O2 the viscosity (293.15 K, 101.3 kPa, x1 = 1) was 107 ± 21 mPa·s, the viscosity (308.15 K, 101.3 kPa, x1 = 1) was 58 ± 12 mPa·s and the viscosity (323.15 K, 101.3 kPa, x1 = 1) was 35.2 ± 7.1 mPa·s.
Work on CCCC[N+]1(C)CCCC1.O=S(=O)(F)[N-]S(=O)(=O)F + CCC[N+]1(C)CCCCC1.O=S(=O)(F)[N-]S(=O)(=O)F yielded a viscosity (288.15 K, 101.3 kPa, x2 = 0) of 135 ± 27 mPa·s, a viscosity (298.15 K, 101.3 kPa, x2 = 0) of 86 ± 17 mPa·s and a viscosity (328.15 K, 101.3 kPa, x2 = 0) of 30.4 ± 6.1 mPa·s. For the same compound, the viscosity (343.15 K, 101.3 kPa, x2 = 0) was 20.4 ± 4.1 mPa·s.

From the CheMixHub ionic liquid set
